{"source": "patent US20180360953A1", "about": "(priority 2015, published 2018)", "tested_on": "Bacillus anthracis lethal toxin", "test": "i.p. alum-adsorbed vaccine with Alvelestat, lethal toxin in vitro macrophage toxicity assay", "conditions": "Alvelestat 100 or 200 μM, Day 21", "data": [{"molecule": "Cc1c(-c2ccnn2C)cc(C(=O)NCc2ccc(S(C)(=O)=O)cn2)c(=O)n1-c1cccc(C(F)(F)F)c1", "note": "[Alvelestat, alvelestat]", "values": [{"measurement": "Serum anti-PA neutralizing Ab responses", "result": "enhanced neutralizing activity"}]}]}
